Construct, isoform or probe ends are uncertain for at least one entry.
Molecular target: EZ-Tn5 hyperactive Tn5 transposase (UniProt Q46731)
Experiment: enzyme reaction in vitro
Settings: purified recombinant protein, protein details: EPICENTRE Biotechnologies EZ-Tn5 Transposase

The chains behind the UniProt entries cited, without tags or fusion partners. Where a name states a change or a piece, a line headed by the entry shows the natural chain unless it says otherwise.
UniProt Q46731: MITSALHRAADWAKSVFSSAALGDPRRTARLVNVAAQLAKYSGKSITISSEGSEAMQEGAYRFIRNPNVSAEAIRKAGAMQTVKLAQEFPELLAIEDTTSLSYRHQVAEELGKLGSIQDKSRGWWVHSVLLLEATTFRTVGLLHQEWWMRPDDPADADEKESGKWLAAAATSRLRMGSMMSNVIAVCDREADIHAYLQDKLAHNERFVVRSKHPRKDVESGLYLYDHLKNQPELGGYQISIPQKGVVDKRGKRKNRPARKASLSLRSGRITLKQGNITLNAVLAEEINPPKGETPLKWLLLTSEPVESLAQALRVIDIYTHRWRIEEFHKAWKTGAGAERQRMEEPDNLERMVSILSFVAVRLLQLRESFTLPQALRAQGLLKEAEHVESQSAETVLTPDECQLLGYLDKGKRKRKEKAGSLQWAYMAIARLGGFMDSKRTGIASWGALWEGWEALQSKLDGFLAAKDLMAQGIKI

GCCTTGCCAGCCCGCTCAGATGTGTATAAGAGACAG / CTGTCTCTTATACACATCT [p454.1MEDS]
activity on this sequence (5'-phosphate on both strands, efficiency similar to pMEDS, no fragmentation without end or enzyme, 10 mM Mg acetate, 37 C): active

GCCTCCCTCGCGCCATCAGAGATGTGTATAAGAGACAG / CTGTCTCTTATACACATCT [A-MEDS]
activity on this sequence (5'-phosphate on non-transferred strand, used mixed 1:1 with B-MEDS transposomes, Mg, 37 or 55 C): active

GCCTTGCCAGCCCGCTCAGAGATGTGTATAAGAGACAG / CTGTCTCTTATACACATCT [B-MEDS]
activity on this sequence (5'-phosphate on non-transferred strand, used mixed 1:1 with A-MEDS transposomes, Mg, 37 or 55 C): active

AGATGTGTATAAGAGACAG (double strand) [MEDS]
activity on this sequence (5'-phosphate on non-transferred strand only, transposome fragmentation of target DNA, Mg, 37 or 55 C, improved by DMF): active

AGATGTGTATAAGAGACAG (double strand) [pMEDS]
activity on this sequence (5'-phosphate on both strands, fragmentation and tagging of T7 D111 DNA, good at 0.25 uM end, TA buffer, 10 mM Mg acetate, 37 C): active

— patent publication US20100120098
